PubChem BioAssay AID624099 – ICCB-Longwood – 2012

- Test: 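Human genes that papillomavirus E2 requires to repress the HPV18 LCR promoter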 (primary screen)
- Cells: human C33A cervical carcinoma cells (HPV-negative) stably expressing BPV1 E2 and an HPV18 LCR luciferase reporter
- Reagents: siRNA pool against human genes, 40 nM
- Timing: 72 h
- Read-out: 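HPV18 LCR reporter light per well, converted to plate-wise z-scores that exclude control wells, and averaged over triplicate plates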
- Scale: mean z-score and z-score: higher = stronger reporter signal, weaker E2 silencing
- Hit rule: 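Mean z ≥ 2 together with z ≥ 2 in two or more of the three replicates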
The whole screen tested about 21,000 reagents; below is a random part of them. Of all reagents, 497 (2.4%) are marked active. 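Higher z means weaker E2 silencing; only reporter increases were scored, and knock-downs that hurt cell survival may mask genuine repressor factors.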 A number with no mark means an inactive call. Reagents against one gene are numbered here. No sequences are given here.

How did the screen score IQGAP3 (IQ motif containing GTPase activating protein 3)?
mean z-score: -0.48; z-score, replicate A: -0.31; z-score, replicate B: -0.76; z-score, replicate C: -0.38

What is on record for LANCL3 (LanC like family member 3)?
mean z-score: 1.31; z-score, replicate A: 1.04; z-score, replicate B: 1.4; z-score, replicate C: 1.48

What did the screen give for MCM7 (minichromosome maintenance complex component 7)?
mean z-score: -1.14; z-score, replicate A: -1.19; z-score, replicate B: -1.23; z-score, replicate C: -1

For REXO1L1P (REXO1 like 1, pseudogene), what was measured?
mean z-score: -0.49; z-score, replicate A: -0.66; z-score, replicate B: -0.38; z-score, replicate C: -0.43

For TMEM39B (transmembrane protein 39B), what does the deposit list?
mean z-score: -0.92; z-score, replicate A: -0.9; z-score, replicate B: -1.36; z-score, replicate C: -0.49

Which result is listed for LOC401581 (retired record)?
mean z-score: 0.79; z-score, replicate A: 0.55; z-score, replicate B: 1.32; z-score, replicate C: 0.5

Which result is listed for SOS2 (SOS Ras/Rho guanine nucleotide exchange factor 2)?
mean z-score: 0.85; z-score, replicate A: 0.93; z-score, replicate B: 0.51; z-score, replicate C: 1.1

With GPATCH2L (G-patch domain containing 2 like), what does the deposit list?
mean z-score: -0.65; z-score, replicate A: -0.67; z-score, replicate B: -0.75; z-score, replicate C: -0.51

With ZNF358 (zinc finger protein 358), what does the deposit list?
mean z-score: 1.29; z-score, replicate A: 0.91; z-score, replicate B: 1.17; z-score, replicate C: 1.8

For LOC393078 (retired record) #1, what was measured?
mean z-score: -0.02; z-score, replicate A: 0.05; z-score, replicate B: -0.19; z-score, replicate C: 0.08

With LOC393078 (retired record) #2, what was measured?
mean z-score: -0.35; z-score, replicate A: -0.29; z-score, replicate B: -0.5; z-score, replicate C: -0.24

For EVI5L (ecotropic viral integration site 5 like), how do the results read?
mean z-score: 0.21; z-score, replicate A: 0.29; z-score, replicate B: 0.21; z-score, replicate C: 0.12

Which result is listed for ASRGL1 (asparaginase and isoaspartyl peptidase 1)?
mean z-score: -0.49; z-score, replicate A: -0.19; z-score, replicate B: -1.13; z-score, replicate C: -0.14

What did the screen give for CNKSR1 (connector enhancer of kinase suppressor of Ras 1)?
mean z-score: -0.32; z-score, replicate A: 0.02; z-score, replicate B: -0.49; z-score, replicate C: -0.49

Which result is listed for NUSAP1 (nucleolar and spindle associated protein 1)?
mean z-score: -0.19; z-score, replicate A: -0.46; z-score, replicate B: -0.19; z-score, replicate C: 0.08

How did the screen score LINC00326 (long independently transcribed non-coding RNA 326)?
mean z-score: -1.29; z-score, replicate A: -0.86; z-score, replicate B: -1.2; z-score, replicate C: -1.81

What did the screen give for AQP6 (aquaporin 6)?
mean z-score: 1.8; z-score, replicate A: 1.89; z-score, replicate B: 1.94; z-score, replicate C: 1.57

For MRPL51 (mitochondrial ribosomal protein L51), how do the results read?
mean z-score: -0.13; z-score, replicate A: 0.05; z-score, replicate B: -0.23; z-score, replicate C: -0.2

With MATN2 (matrilin 2), how do the results read?
mean z-score: -1.6; z-score, replicate A: -1.35; z-score, replicate B: -1.73; z-score, replicate C: -1.71

With CLDN8 (claudin 8), how do the results read?
mean z-score: -1.3; z-score, replicate A: -1.41; z-score, replicate B: -1.08; z-score, replicate C: -1.41

With FKBP1C (FKBP prolyl isomerase family member 1C), how do the results read?
mean z-score: 0.11; z-score, replicate A: 0.08; z-score, replicate B: 0.05; z-score, replicate C: 0.18

For FAM90A6P (family with sequence similarity 90 member A6, pseudogene), what was measured?
mean z-score: 0.69; z-score, replicate A: 0.8; z-score, replicate B: 0.53; z-score, replicate C: 0.74

For LOC401079 (retired record), what does the deposit list?
mean z-score: -0.85; z-score, replicate A: -1.03; z-score, replicate B: -0.73; z-score, replicate C: -0.78

What is on record for LIN7B (lin-7 cell polarity scaffold B)?
mean z-score: 1.05; z-score, replicate A: 1.23; z-score, replicate B: 1.21; z-score, replicate C: 0.7

How did the screen score INF2 (inverted formin 2) #1?
mean z-score: -0.18; z-score, replicate A: -0.23; z-score, replicate B: 0.08; z-score, replicate C: -0.38

Which result is listed for INF2 (inverted formin 2) #2?
mean z-score: 0.46; z-score, replicate A: 0.7; z-score, replicate B: 0.27; z-score, replicate C: 0.4

What is on record for ZNF416 (zinc finger protein 416)?
mean z-score: -0.32; z-score, replicate A: 0; z-score, replicate B: -0.36; z-score, replicate C: -0.59

2 entries already listed, sorted by “z-score, replicate B”, ascending:
LOC393078 (retired record) #2: mean z-score = -0.35; z-score, replicate A = -0.29; z-score, replicate B = -0.5; z-score, replicate C = -0.24
EVI5L (ecotropic viral integration site 5 like): mean z-score = 0.21; z-score, replicate A = 0.29; z-score, replicate B = 0.21; z-score, replicate C = 0.12
